Results of unrelated studies side by side (data: NIAID ChemDB).

Common to all: tests in culture; agent: Human herpesvirus 6; read-out: EC50

Lines come from different laboratories, so protocols vary. ECn is the concentration giving n% inhibition of infection, replication or growth. An empty or dashed field is not shown.

compound | cells | strain | read by | value
CC(C)Nc1nc2cc(Cl)c(Cl)cc2n1[C@@H]1OC[C@@H](O)[C@H]1O | MOLT-3 | 6B | hybridisation | 83 µM
Nc1nc2c(ncn2C[C@]2(CO)C[C@H]2CO)c(=O)[nH]1 | MOLT-3 | TYPE 6A | cytopathic effect | 2.6 µg/mL
O[C@@H]1[C@H](O)[C@H](O)CO[C@H]1n1c(Br)nc2cc(Cl)c(Cl)cc21 | HSB-2 | 6a | hybridisation | 23 µM
Nc1nc(NC2CC2)c2ncn(/C=C3/C[C@@H]3CO)c2n1 | HSB-2 | TYPE 6A | flow cytometry | 3.3 µM
N#CC1C(c2ccc(Cl)cc2)Nc2ccccc2S1(=O)=O | HSB-2 | GS (TYPE 6A) | hybridisation | 1.3 µg/mL
O[C@@H]1[C@H](O)CO[C@H]1n1c(NC2CC2)nc2cc(Cl)c(Cl)cc21 | MOLT-3 | 6B | hybridisation | >100 µM
C#CCNc1nc(N)nc2c1ncn2/C=C1/C[C@@H]1CO | HSB-2 | TYPE 6A | flow cytometry | 100 µM
Cc1c(S(=O)(=O)c2ccc(Cl)cc2)c(NC(=O)C(F)(F)F)n(Cc2ccc(Cl)cc2)c1C | HSB-2 | GS (TYPE 6A) | cytopathic effect | 5 µg/mL
Nc1nc2c(ncn2[C@@H]2C[C@H](CO)[C@H]2CO)c(=O)[nH]1 | HSB-2 | GS (subtype 6A) | - | 1.96 µg/mL
CCCCCSc1nc(N)nc2c1ncn2/C=C1/C[C@@H]1CO | HSB-2 | TYPE 6A | flow cytometry | 16.8 µM
CC(C)Nc1nc2cc(Cl)c(Cl)cc2n1[C@H]1O[C@@H](CO)[C@H](O)[C@@H]1O | SupT1 | GS (subtype 6A) | flow cytometry | >133 µM
Nc1nc2c(ncn2C[C@]2(CO)C[C@H]2CO)c(=O)[nH]1 | MOLT-3 | Z-29 (subtype 6B) | - | 3.48 µg/mL
Nc1nc(NCC2CC2)c2ncn(/C=C3/C[C@@H]3CO)c2n1 | HSB-2 | TYPE 6A | flow cytometry | 108 µM
Nc1nc2c(ncn2[C@@H]2C[C@H](CO)[C@H]2CO)c(=O)[nH]1 | Human T-lymphoblasts | - | - | 4.9 µM
OC[C@H]1CC(n2c(Br)nc3cc(Cl)c(Cl)cc32)[C@H](O)[C@@H]1O | MOLT-3 | 6B | hybridisation | 15 µM
Nc1nc2c(ncn2COC(CO)CO)c(=O)[nH]1 | MOLT-3 | Z-29 (subtype 6B) | cytopathic effect | 16 µg/mL
CCCCCOc1nc(N)nc2c1ncn2/C=C1/C[C@@H]1CO | HSB-2 | TYPE 6A | flow cytometry | 2.3 µM
Nc1nc2c(ncn2[C@@H]2C=C[C@H](CO)CC2)c(=O)[nH]1 | Human T-lymphoblasts | - | cytopathic effect | 3.9 µM
Nc1ccn(C[C@@H](CO)OCP(=O)(O)O)c(=O)n1 | SupT1 | GS (subtype 6A) | flow cytometry | >11.7 µM
Nc1nc2c(ncn2COC(CO)CO)c(=O)[nH]1 | Human cord blood lymphocytes | - | cytopathic effect | 0.93 µM
O=C(O)P(=O)(O)O | HSB-2 | GS (subtype 6A) | flow cytometry | 13.7 µM
Nc1nc2c(ncn2CCC(CO)CO)c(=O)[nH]1 | MOLT-3 | Z-29 (subtype 6B) | cytopathic effect | >100 µg/mL
CO[C@H]1[C@@H](OC)C[C@H](C)[C@@H](OC)C2=CC(=O)C=C(NC(=O)/C(C)=C/C=C/[C@H](OC)[C@@H](OC(N)=O)/C(C)=C/[C@@H]1C)C2=O | HSB-2 | TYPE A (GS) | hybridisation | 0.0322 µM
Nc1nc2c(ncn2/C=C2/CC2(CO)CO)c(=O)[nH]1 | HSB-2 | TYPE 6A | flow cytometry | 7.8 µM
Nc1ncc2c(ncn2COC(CO)CO)n1 | Human T-lymphoblasts | - | cytopathic effect | 0.0033 µM
Cc1c(S(=O)(=O)c2ccc(Cl)cc2)c(NC(=O)C(F)(F)F)n(Cc2ccccc2)c1C | MOLT-3 | Z29 (TYPE 6B) | cytopathic effect | >20 µg/mL
CCCSc1nc(N)nc2c1ncn2/C=C1/C[C@@H]1CO | HSB-2 | TYPE 6A | flow cytometry | 9.6 µM

For reference, 2 entries again:

compound | cells | strain | read by | value
Nc1nc2c(ncn2C[C@]2(CO)C[C@H]2CO)c(=O)[nH]1 | MOLT-3 | TYPE 6A | cytopathic effect | 2.6 µg/mL
O[C@@H]1[C@H](O)CO[C@H]1n1c(NC2CC2)nc2cc(Cl)c(Cl)cc21 | MOLT-3 | 6B | hybridisation | >100 µM